Pooled drug test results. Numbers come from NIAID ChemDB, via PubChem.

Common to all: tests in culture; species: HIV-1; cell line: MT-2; endpoint: EC50

An empty or dashed field is not shown.

{"smiles": "N#Cc1ccc(Nc2nccs2)cc1OCc1ccsc1", "strain": "IIIB", "method": "cytopathic effect / MTT", "result": ">1.1 µM"}
{"smiles": "CC(C)C1=C2[C@H]3CC[C@@H]4[C@@]5(C)CC[C@H](OC(=O)[C@H]6C[C@@H](C(=O)O)C6(C)C)C(C)(C)[C@@H]5CC[C@@]4(C)[C@]3(C)CC[C@@]2([C@@H](O)CN[C@H](C)c2ccccc2)CC1=O", "strain": "92HT599", "method": "p24 / ELISA", "result": "<1 µM"}
{"smiles": "Nc1ccc(CO[C@H]2C(=O)Nc3ccc(Cl)cc3[C@@]2(C#CC2CC2)C(F)(F)F)cc1", "strain": "RF", "result": "<0.021 µM"}
{"smiles": "C=C(C)[C@@H]1CC[C@]2(NC(=O)N3CCC[C@H]3c3ncc(-c4ccccc4)[nH]3)CC[C@]3(C)[C@H](CC[C@@H]4[C@@]5(C)CC=C(c6ccc(C(=O)O)cc6)C(C)(C)[C@@H]5CC[C@]43C)[C@@H]12", "strain": "92HT599", "method": "p24 / ELISA", "result": "0.01001–0.05 µM"}
{"smiles": "Cc1cccc(C(=O)NC(C)(C)CNC(=O)C[C@@]23CC[C@]4(C)[C@H](CC[C@@H]5[C@@]6(C)CC[C@H](OC(=O)[C@H]7C[C@@H](C(=O)O)C7(C)C)C(C)(C)[C@@H]6CC[C@]54C)C2=C(C(C)C)C(=O)C3)n1", "strain": "92HT599", "method": "p24 / ELISA", "result": "<1 µM"}
{"smiles": "CC(C)=CCOc1cc(Nc2nc(N)cc(Cl)n2)ccc1Cl", "strain": "IIIB", "method": "cytopathic effect / MTT", "result": ">0.014 µM"}
{"smiles": "CC1([C@@H]2CC[C@]3(NC(=O)N4CCC[C@H]4c4ncc(-c5ccc(F)cc5)[nH]4)CC[C@]4(C)[C@H](CC[C@@H]5[C@@]6(C)CC=C(c7ccc(C(=O)O)cc7)C(C)(C)[C@@H]6CC[C@]54C)[C@@H]23)CC1", "strain": "92HT599", "method": "p24 / ELISA", "result": "≤0.01 µM"}
{"smiles": "O=C1CC(C#CC2CC2)(C(F)(F)F)c2cc(Cl)ccc2N1", "mutations": "RT-K103N", "result": "<1.77 µM"}
{"smiles": "CC(C)C1=C2[C@H]3CC[C@@H]4[C@@]5(C)CC[C@H](OC(=O)[C@H]6C[C@@H](C(=O)O)C6(C)C)C(C)(C)[C@@H]5CC[C@@]4(C)[C@]3(C)CC[C@@]2([C@@H](O)CNCC2(NC(=O)c3ccc(Cl)cc3)CCCC2)CC1=O", "strain": "92HT599", "method": "p24 / ELISA", "result": "<1 µM"}
{"smiles": "O=C1Nc2ccc(Cl)cc2[C@@](C#CC2CC2)(C(F)(F)F)[C@H]1OCc1ccncc1", "strain": "RF", "result": "<0.019 µM"}
{"smiles": "CN(C)C(=O)N[C@]12CC[C@@H](C3(C)CC3)[C@@H]1[C@H]1CC[C@@H]3[C@@]4(C)CC=C(c5ccc(C(=O)O)cc5)C(C)(C)[C@@H]4CC[C@@]3(C)[C@]1(C)CC2", "strain": "92HT599", "method": "p24 / ELISA", "result": "≤0.01 µM"}
{"smiles": "COC(=O)N[C@H]1C(=O)Nc2ccc(Cl)cc2[C@@]1(C#CC1CC1)C(F)(F)F", "strain": "RF", "result": "<0.212 µM"}
{"smiles": "CC(C)=CCOc1cc(Nc2nc(C)cc(N)n2)ccc1Cl", "strain": "IIIB", "method": "cytopathic effect / MTT", "result": ">0.004 µM"}
{"smiles": "CN(C)C(=O)[C@H]1C[C@@H](NC(=O)N[C@]23CC[C@@H](C4(C)CC4)[C@@H]2[C@H]2CC[C@@H]4[C@@]5(C)CC=C(c6ccc(C(=O)O)cc6)C(C)(C)[C@@H]5CC[C@@]4(C)[C@]2(C)CC3)C1(C)C", "strain": "92HT599", "method": "p24 / ELISA", "result": "≤0.01 µM"}
{"smiles": "CC(C)C1=C2[C@H]3CC[C@@H]4[C@@]5(C)CC[C@H](OC(=O)[C@H]6C[C@@H](C(=O)O)C6(C)C)C(C)(C)[C@@H]5CC[C@@]4(C)[C@]3(C)CC[C@@]2([C@@H](O)CNCc2ccc3ccccc3n2)CC1=O", "strain": "92HT599", "method": "p24 / ELISA", "result": "<1 µM"}
{"smiles": "CCN(C(=O)[C@H](Cc1cc(F)cc(F)c1)NC(=O)CN1c2ccccc2N(CC(=O)N[C@@H](Cc2cc(F)cc(F)c2)C(=O)N(CC)c2ccc3oc(=O)n(CC)c3c2)S1(=O)=O)c1ccc2oc(=O)n(CC)c2c1", "strain": "NL4-3", "method": "luciferase", "result": "2.13 µM"}
{"smiles": "CC1=C(COc2cc(Nc3nccs3)ccc2Cl)CCC1", "strain": "IIIB", "method": "cytopathic effect / MTT", "result": ">11 µM"}
{"smiles": "CC(C)C1=C2[C@H]3CC[C@@H]4[C@@]5(C)CC[C@H](OC(=O)[C@H]6C[C@@H](C(=O)O)C6(C)C)C(C)(C)[C@@H]5CC[C@@]4(C)[C@]3(C)CC[C@@]2(CC(=O)NCC(C)(C)NC(=O)c2ccc(Cl)cc2O[C@@H]2CCOC2)CC1=O", "strain": "92HT599", "method": "p24 / ELISA", "result": "<1 µM"}
{"smiles": "C=CCCN(C(=O)[C@H](Cc1cc(F)cc(F)c1)NC(=O)NS(=O)(=O)N[C@@H](Cc1cc(F)cc(F)c1)C(=O)N(CC=C)c1ccc(OC)cc1)c1ccc(OC)cc1", "strain": "NL4-3", "method": "luciferase", "result": "0.26 µM"}
{"smiles": "CC(C)C1=C2[C@H]3CC[C@@H]4[C@@]5(C)CC[C@H](OC(=O)[C@H]6C[C@@H](C(=O)O)C6(C)C)C(C)(C)[C@@H]5CC[C@@]4(C)[C@]3(C)CC[C@@]2([C@@H](O)CNC(=O)c2cccnc2N2CCOCC2)CC1=O", "strain": "92HT599", "method": "p24 / ELISA", "result": "<1 µM"}
{"smiles": "O=C1Nc2ccc(Cl)cc2[C@@](C#CC2CC2)(C(F)(F)F)[C@H]1OCc1ccc(F)cc1", "strain": "RF", "result": "<0.112 µM"}
{"smiles": "Cc1cc(C(=O)N[C@@H](Cc2cc(F)cc(F)c2)C(=O)N(C)c2ccc3scnc3c2)cc(C(=O)N[C@@H](Cc2cc(F)cc(F)c2)C(=O)N(C)c2ccc3scnc3c2)c1", "strain": "NL4-3", "method": "luciferase", "result": "0.01 µM"}
{"smiles": "CNC(=O)N[C@]12CC[C@@H](C3(C)CC3)[C@@H]1[C@H]1CC[C@@H]3[C@@]4(C)CC=C(c5ccc(C(=O)O)cc5)C(C)(C)[C@@H]4CC[C@@]3(C)[C@]1(C)CC2", "strain": "92HT599", "method": "p24 / ELISA", "result": "≤0.01 µM"}
{"smiles": "COc1ccc(N(C)C(=O)[C@H](Cc2ccccc2)NC(=O)NS(=O)(=O)N[C@@H](Cc2cc(F)cc(F)c2)C(=O)N(C)c2ccc(OC)cc2)cc1", "strain": "NL4-3", "method": "luciferase", "result": "0.02 µM"}
{"smiles": "CC1([C@@H]2CC[C@]3(NC(=O)N4CCC[C@H]4c4ncc(-c5ccccc5)[nH]4)CC[C@]4(C)[C@H](CC[C@@H]5[C@@]6(C)CC=C(c7ccc(C(=O)O)cc7)C(C)(C)[C@@H]6CC[C@]54C)[C@@H]23)CC1", "strain": "92HT599", "method": "p24 / ELISA", "result": "0.01001–0.05 µM"}
{"smiles": "CC(C)C1=C2[C@H]3CC[C@@H]4[C@@]5(C)CC[C@H](OC(=O)[C@H]6C[C@@H](C(=O)O)C6(C)C)C(C)(C)[C@@H]5CC[C@@]4(C)[C@]3(C)CC[C@@]2([C@@H](O)CNC(=O)C(C)(C)NC(=O)c2ccccc2Cl)CC1=O", "strain": "92HT599", "method": "p24 / ELISA", "result": "<1 µM"}
{"smiles": "CC1([C@@H]2CC[C@]3(NC(=O)N4CCC(OCCN5CCOCC5)CC4)CC[C@]4(C)[C@H](CC[C@@H]5[C@@]6(C)CC=C(c7ccc(C(=O)O)cc7)C(C)(C)[C@@H]6CC[C@]54C)[C@@H]23)CC1", "strain": "92HT599", "method": "p24 / ELISA", "result": "≤0.01 µM"}
{"smiles": "Cc1cc(N(C)C(=O)[C@H](Cc2cc(F)cc(F)c2)NC(=O)NS(=O)(=O)N[C@@H](Cc2cc(F)cc(F)c2)C(=O)N(C)c2cnc(C)c(C)c2)cnc1C", "strain": "NL4-3", "method": "luciferase", "result": "7 µM"}

3 of the rows above, restated:

smiles | strain | mutations | method | result
CC(C)C1=C2[C@H]3CC[C@@H]4[C@@]5(C)CC[C@H](OC(=O)[C@H]6C[C@@H](C(=O)O)C6(C)C)C(C)(C)[C@@H]5CC[C@@]4(C)[C@]3(C)CC[C@@]2([C@@H](O)CNC(=O)C(C)(C)NC(=O)c2ccccc2Cl)CC1=O | 92HT599 | - | p24 / ELISA | <1 µM
CC(C)C1=C2[C@H]3CC[C@@H]4[C@@]5(C)CC[C@H](OC(=O)[C@H]6C[C@@H](C(=O)O)C6(C)C)C(C)(C)[C@@H]5CC[C@@]4(C)[C@]3(C)CC[C@@]2(CC(=O)NCC(C)(C)NC(=O)c2ccc(Cl)cc2O[C@@H]2CCOC2)CC1=O | 92HT599 | - | p24 / ELISA | <1 µM
CC(C)C1=C2[C@H]3CC[C@@H]4[C@@]5(C)CC[C@H](OC(=O)[C@H]6C[C@@H](C(=O)O)C6(C)C)C(C)(C)[C@@H]5CC[C@@]4(C)[C@]3(C)CC[C@@]2([C@@H](O)CNCC2(NC(=O)c3ccc(Cl)cc3)CCCC2)CC1=O | 92HT599 | - | p24 / ELISA | <1 µM

a–b is a range or a potency band. Conditions beyond the fields shown may differ between rows. ECn is the concentration giving n% inhibition of infection, replication or growth.